Compound potency records, mixed from different reports. Data source: NIAID ChemDB in PubChem.

Shared fields: whole-cell or culture tests; species: Plasmodium falciparum; method: SYBR Green; read-out: EC50

Rows are shuffled and stem from different studies.

C#[N+][C@@H]1C2C([C@@]3(C)CCC(C(C)(C)Cl)O3)CC[C@](C)([N+]#C)C2CC[C@@]1(C)O ; strain: Dd2 ; value: 0.0046 µM
C=C1CC[C@H](Br)[C@@]2(C)CCC(Br)[C@@](C)(O)CCC(Br)C(C)(C)OC(=O)c3ccc(O)c(c3)C[C@H]12 ; cell line: Human O+ erythrocytes ; strain: 3D7 MR4/ATCC ; value: 0.9 µM
CCN(CC)CCCC(C)Nc1ccnc2cc(Cl)ccc12 ; cell line: Red blood cells ; strain: HB3 ; value: 0.009 µg/mL
C=CCOc1ccc(/C=C/C(=O)c2cc3ccccc3oc2=O)cc1OC ; strain: 3D7 ; value: 100 µM
CC1=C2Cc3cc(ccc3O)C(=O)O[C@H](C(C)(C)O)CC[C@](C)(O)[C@H](Br)CC[C@]2(C)[C@@H](Br)CC1 ; cell line: Human O+ erythrocytes ; strain: 3D7 MR4/ATCC ; value: 56 µM
CN(C)c1cc[n+](-c2ccc(C[n+]3cnc(N)c4[nH]cnc43)cc2)cc1 ; strain: 3D7 ; value: >22.7 µM
C=CCOc1ccc(/C=C/C(=O)c2c(O)c3ccccc3oc2=O)cc1OC ; strain: 3D7 ; value: >100 µM
CC(C)Nc1nc2cc(-c3ccc(Cl)cc3)sc2c(=O)[nH]1.O=C(O)/C=C/C(=O)O ; strain: K1 ; value: 0.2 µM
CCN(CC)CCCC(C)Nc1ccnc2cc(Cl)ccc12 ; value: 0.3 µM
Cc1c(-c2ccc(-c3ccc(OC(C)(C)C)cc3)nc2)[nH]c2ccccc2c1=O ; strain: 3D7 ; value: 0.054 µM
C=C1C[C@@H]2/C=C(\CO)CC/C=C(\C)C[C@H](OC(=O)C(=C)CO)[C@H]2C1=C ; cell line: Red blood cells ; strain: HB3 ; value: 0.614 µg/mL
CCC[C@H]1O[C@@H]2CC(=O)O[C@@H]2C2=C1C(=O)c1c(O)cccc1C2=O ; strain: HB3 ; value: 0.6 µM
C=C(C)[C@@H]1CC[C@](C)(O)[C@H](Br)CC[C@@]2(C)[C@H](Cc3cc(ccc3O)C(=O)O1)C(=C)CC[C@@H]2Br ; cell line: Human O+ erythrocytes ; strain: 3D7 MR4/ATCC ; value: 0.8 µM
CCN(CC)CCCC(C)Nc1ccnc2cc(Cl)ccc12 ; strain: 3D7 ; value: 0.01 µM
CN1CCC(N(C)C(=O)c2c[n+]3c(cn2)CN=C3c2ccc(C(F)(F)F)cc2)CC1 ; value: >10 µM
C=C1CC[C@H](Br)[C@@]2(C)CCC(Br)[C@@](C)(O)CCC(O)C(C)(C)OC(=O)c3ccc(O)c(c3)C[C@H]12 ; cell line: Human O+ erythrocytes ; strain: 3D7 MR4/ATCC ; value: 2.5 µM
CC1(C)C2CC=C3C(CC[C@@]4(C)C5C[C@](C)(C(=O)O)CC[C@]5(C)CC[C@]34C)[C@@]2(C)CCC1(O)O ; changes: CQ-resistant ; strain: FCM29 ; value: 5.2 µM
C=C1CC[C@H](Br)[C@@]2(C)CC[C@@H](Br)[C@@](C)(O)CC[C@@H](C(C)(C)Br)OC(=O)c3ccc(O)c(c3)C[C@H]12 ; cell line: Human O+ erythrocytes ; strain: 3D7 MR4/ATCC ; value: 0.3 µM
CC(=O)O[C@H]1CC2C(C3CC[C@H](C(C)CCCN(CCCNc4ccnc5cc(Cl)ccc45)CCCC(C)[C@H]4CCC5C6C(C[C@H](OC(C)=O)[C@@]54C)[C@@]4(C)CC[C@@H](NC(=O)OC(C)(C)C)C[C@H]4C[C@H]6OC(C)=O)[C@]31C)[C@H](OC(C)=O)C[C@@H]1C[C@H](NC(=O)OC(C)(C)C)CC[C@]21C ; strain: W2 ; value: 0.369 µM
Cc1cn([C@@H]2C[C@H](O)[C@@H](CNS(=O)(=O)c3ccc([N+](=O)[O-])cc3)O2)c(=O)[nH]c1=O ; value: >100 µM

The first 3 rows once more:

| SMILES | cell line | changes | strain | value |
|---|---|---|---|---|
| C#[N+][C@@H]1C2C([C@@]3(C)CCC(C(C)(C)Cl)O3)CC[C@](C)([N+]#C)C2CC[C@@]1(C)O |  |  | Dd2 | 0.0046 µM |
| C=C1CC[C@H](Br)[C@@]2(C)CCC(Br)[C@@](C)(O)CCC(Br)C(C)(C)OC(=O)c3ccc(O)c(c3)C[C@H]12 | Human O+ erythrocytes |  | 3D7 MR4/ATCC | 0.9 µM |
| CCN(CC)CCCC(C)Nc1ccnc2cc(Cl)ccc12 | Red blood cells |  | HB3 | 0.009 µg/mL |

An empty or dashed field is not shown. ECn: concentration that inhibits the pathogen or its effect by n%.